Compound potency records, mixed from different reports. Data source: NIAID ChemDB in PubChem.

All rows: cytotoxicity tests; cells: HFF; measure: CC50

Blank or dashed fields: not listed here. Lines come from different laboratories, so protocols vary. CCn is the concentration with n% toxicity to the cells.

| structure | method | value |
|---|---|---|
| C[CH2][Sn]([Br])([Br])[CH2]C.c1ccc(-c2nc3ccccc3[nH]2)nc1 | - | 14 µg/mL |
| O=Nc1c(-c2c(O)[nH]c3ccc(S(=O)(=O)O)cc23)[nH]c2ccccc12 | - | >320 µg/mL |
| Nc1nc(Cl)c2ncn(/C=C3/C[C@@H]3CO)c2n1 | neutral red | 28 µM |
| C=C1[C@H](CO)[C@@H](O)C[C@@H]1n1cnc2c(=O)[nH]c(N)nc21 | - | 120 µM |
| Nc1nc2c(ncn2/C=C2/C[C@@H]2CO)c(=O)[nH]1 | neutral red | 257 µM |
| CC[C@H]1OC(=O)[C@H](C)C(=O)[C@H](C)[C@@H](O[C@@H]2O[C@H](C)C[C@H](N(C)C)[C@H]2O)[C@](C)(OC)C[C@@H](C)C(=O)[C@H](C)[C@H]2N(CCCCn3cnc(-c4cccnc4)c3)C(=O)O[C@]12C | - | >25 µg/mL |
| C[CH2][Sn]([Br])([Br])[CH2]C.c1cnc2c(c1)ccc1cccnc12 | - | 31 µg/mL |
| NC(=O)c1cn([C@@H]2O[C@H](CO)[C@@H](O)[C@H]2O)c2ncnc(N)c12 | - | 0.07 µM |
| OC[C@H]1O[C@@H](n2c(Br)nc(Br)c2Br)[C@H](O)[C@@H]1O | - | 100 µM |
| Nc1nc(NC2CC2)c2ncn(C=C3CC3CO)c2n1 | visual reading | 222 µM |
| N#Cc1cn([C@@H]2O[C@H](CO)[C@@H](O)[C@@H]2N)c2ncnc(N)c12 | - | >100 µM |
| Brc1nc(Br)c(Br)[nH]1 | - | 75 µM |
| Cc1[nH]c2ccccc2c(=O)c1-c1ccc(Oc2ccc(OC(F)(F)F)cc2)cc1 | absorbance | 9.349 µM |
| O=C1C(c2c(O)[nH]c3ccc(Cl)cc23)=Nc2ccccc21 | - | >320 µg/mL |
| Nc1ncnc2c1ncn2[C@@H]1C[C@@H](O)[C@H](CO)O1 | - | >100 µM |
| OCC(CO)OCn1c(Cl)nc(Cl)c1Cl | - | >100 µM |
| [Cl][Sn]([c]1ccccc1)([c]1ccccc1)[c]1ccccc1 | - | 2.3 µg/mL |
| N#Cc1cn([C@@H]2O[C@H](CO)[C@@H](O)[C@@H]2N=[N+]=[N-])c2ncnc(N)c12 | - | 55 µM |
| OCCOCn1c(Cl)nc(Cl)c1Cl | - | 45 µM |
| Nc1ncnc2c1ncn2/C=C1/C[C@@H]1CO | neutral red | 68 µM |
| COCCOCn1cc(C(N)=S)c2c(N)ncnc21 | visual reading | >100 µM |
| O=C1C(c2c(O)[nH]c3ccc([N+](=O)[O-])cc23)=Nc2ccccc21 | - | >320 µg/mL |
| CO[C@H]1O[C@@H]2O[C@@]3(C)CC[C@H]4[C@H](C)CC[C@@H]([C@H]1C)[C@@]24OO3 | - | 220 µg/mL |
| Nc1ncnc2c1ccn2[C@@H]1O[C@H](CO)[C@@H](O)[C@@H]1O | - | >100 µM |
| NC(=S)c1cn([C@@H]2O[C@H](CO)[C@@H](O)[C@@H]2O)c2ncnc(N)c12 | - | 29 µM |
| COC(=O)[C@H](C)NP(=O)(OC[C@@H]1C[C@]12C[C@@H]2n1cnc2c(N)ncnc21)Oc1ccccc1 | - | 95 µM |
| N#Cc1cn([C@@H]2O[C@H](CO)[C@@H](O)[C@@H]2I)c2ncnc(N)c12 | - | 100 µM |
| O=C1c2ccc(Br)cc2-n2c1nc1ccccc1c2=O | - | >320 µg/mL |
| Nc1nncc2c1c(Br)cn2[C@@H]1O[C@H](CO)[C@@H](O)[C@H]1O | visual reading | 100 µM |
| CC1=C(C(=O)NCc2cc(F)cc(F)c2)OC2OC3(C)CC[C@H]4[C@H](C)CC[C@@H]1[C@@]24OO3 | - | 78 µM |
| Nc1ncnc2c1ncn2/C=C1/C[C@H]1CO | neutral red | 353 µM |
| OC[C@H]1O[C@@H](n2c(Cl)nc3cc(Cl)c(Cl)cc32)[C@H](O)[C@@H]1O | - | 238 µM |
| CCC[CH2][Sn+2][CH2]CCC | - | <1 µg/mL |
| CC1=C(C(=O)NCc2ccc(C)cc2)OC2OC3(C)CC[C@H]4[C@H](C)CC[C@@H]1[C@@]24OO3 | - | 72 µM |
| N#Cc1c(N)n(Cc2ccc(Br)cc2)c2ncnc(N)c12 | visual reading | >10 µM |
| Nc1ccn([C@@H]2C[C@@H](O)[C@H](CO)O2)c(=O)n1 | - | >100 µM |
| O=C1c2ccc(Cl)cc2-n2c1nc1ccccc1c2=O | - | >320 µg/mL |
| Nc1ccn([C@@H]2C[C@@H](O)[C@H](CO)O2)c(=O)n1 | - | >60 µM |
| [Br][Sn]([Br])([c]1ccccc1)[c]1ccccc1 | - | 2 µg/mL |
| COC(=O)C(C)NOP(OC[C@H]1C/C1=C/n1cnc2c(N)[nH]c(=O)nc21)Oc1ccccc1 | - | >205 µM |
| COc1nc(N)nc2c1ncn2/C=C1/C[C@@H]1CO | neutral red | 16 µM |
| OCC(CO)OCn1c(Br)nc(Cl)c1Cl | - | >100 µM |
| Cc1ccc2[nH]c(O)c(C3=Nc4ccccc4C3=O)c2c1 | - | >320 µg/mL |
| Cn1cnc2nc(NCCO)nc(NCc3ccccc3)c21 | visual reading | >100 µM |
| NC(=S)c1cn([C@H]2C[C@H](O)[C@@H](CO)O2)c2ncnc(N)c12 | - | 41 µM |
| OC[C@H]1O[C@@H](n2c(Br)nc(Br)c2Br)[C@@H](O)[C@@H]1O | - | >100 µM |
| Nc1nc(F)nc2c1ncn2/C=C1\CC1CO | - | >100 µM |
| C[C@H]1[C@@H](CCCC(=O)c2ccccc2Br)O[C@@H]2OC3(C)CC[C@H]4[C@H](C)CC[C@@H]1[C@@]24OO3 | - | >320 µg/mL |
| O=C1C(c2c(O)[nH]c3cc(Cl)ccc23)=Nc2ccccc21 | - | >320 µg/mL |
| Nc1nc(Cl)c2ncn(/C=C3/C[C@H]3CO)c2n1 | neutral red | 93 µM |
| Nc1nc(F)nc2c1ncn2/C=C1/CC1CO | - | 12.8 µM |
| Nc1ncnc2c1ncn2[C@@H]1C[C@@H](O)[C@H](CO)O1 | - | >100 µM |
| NC(=S)c1cn([C@@H]2O[C@H](CO)[C@@H](O)[C@@H]2N)c2ncnc(N)c12 | - | 73 µM |
| C=C1CCCC2[C@@H](CCC3(C)CCC([C@@H](C)C(=O)O)OO3)[C@H](C)CC[C@@]12C | - | <0.392 µM |
| CC1=C(C(=O)NCc2ccc(F)c(F)c2)OC2OC3(C)CC[C@H]4[C@H](C)CC[C@@H]1[C@@]24OO3 | - | 320 µM |
| C[C@H]1[C@@H](CCCO)O[C@@H]2OC3(C)CC[C@H]4[C@H](C)CC[C@@H]1[C@@]24OO3 | - | 160 µg/mL |
| N#Cc1cn([C@@H]2O[C@H](CO)[C@@H](O)[C@@H]2Cl)c2ncnc(N)c12 | - | 140 µM |
| N#Cc1cn([C@@H]2O[C@H](CO)[C@@H](O)[C@@H]2O)c2ncnc(N)c12 | - | 0.3 µM |
| Nc1nc(NC2CC2)c2ncn(/C=C3/C[C@@H]3CO)c2n1 | neutral red | 213 µM |

The first 4 rows once more:

{"structure": "C[CH2][Sn]([Br])([Br])[CH2]C.c1ccc(-c2nc3ccccc3[nH]2)nc1", "value": "14 µg/mL"}
{"structure": "O=Nc1c(-c2c(O)[nH]c3ccc(S(=O)(=O)O)cc23)[nH]c2ccccc12", "value": ">320 µg/mL"}
{"structure": "Nc1nc(Cl)c2ncn(/C=C3/C[C@@H]3CO)c2n1", "method": "neutral red", "value": "28 µM"}
{"structure": "C=C1[C@H](CO)[C@@H](O)C[C@@H]1n1cnc2c(=O)[nH]c(N)nc21", "value": "120 µM"}